Results from the supplement of paper PMC9931576.
Human monoclonal antibodies against the spike receptor-binding domain (heavy:light variable regions). IC50 against pseudoviruses bearing the spike of naturally observed variants; lower = stronger; >10 µg/ml means not reached at the top dose. No active / inactive call. The stated detection limit is 0.0005 µg/ml; values near or below 0.001 µg/ml lie at the floor of the assay.

Key:
Assay in all cases: pseudovirus neutralization IC50; higher = weaker neutralization
[1] = target: SARS-CoV-2 Omicron BQ.1.1 spike pseudovirus
Description: (§1)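 Single-round VSV luciferase pseudovirus mixed with antibody dilutions for 1 h and put on Huh-7 cells for about a day; IC50 from the dose curve.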

[2] = target: SARS-CoV-2 Omicron XBB spike pseudovirus
Description: as §1

[3] = target: SARS-CoV-2 Omicron BA.1 spike pseudovirus
Description: as §1

[4] = target: SARS-CoV-2 Omicron BA.2 spike pseudovirus
Description: as §1

[5] = target: SARS-CoV-2 Omicron BA.2.75 spike pseudovirus
Description: as §1

[6] = target: SARS-CoV-2 Omicron BA.2.75.2 spike pseudovirus
Description: as §1

[7] = target: SARS-CoV-2 Omicron BA.5 spike pseudovirus
Description: as §1

[8] = target: SARS-CoV-2 Omicron BM.1.1.1 spike pseudovirus
Description: as §1

[9] = target: SARS-CoV-2 Omicron BR.2 spike pseudovirus
Description: as §1

[10] = target: SARS-CoV-2 Omicron CA.1 spike pseudovirus
Description: as §1

[11] = target: SARS-CoV-2 early D614G spike pseudovirus
Description: as §1

| Binder | pseudovirus neutralization IC50 [1] [mg/L] | pseudovirus neutralization IC50 [2] [mg/L] | pseudovirus neutralization IC50 [3] [mg/L] | pseudovirus neutralization IC50 [4] [mg/L] | pseudovirus neutralization IC50 [5] [mg/L] | pseudovirus neutralization IC50 [6] [mg/L] | pseudovirus neutralization IC50 [7] [mg/L] | pseudovirus neutralization IC50 [8] [mg/L] | pseudovirus neutralization IC50 [9] [mg/L] | pseudovirus neutralization IC50 [10] [mg/L] | pseudovirus neutralization IC50 [11] [mg/L] |
| --- | --- | --- | --- | --- | --- | --- | --- | --- | --- | --- | --- |
| BD55-6390 (protein) chain 1: QVQLVQSGAEVKKPGSSVKVSCKASGGTFSSSAISWVRQAPGQGLEWMGRIIPMFGIVSYEQKFQGRVTITADKSTSTAYMELSSLRSEDTGVYYCARDFVDMHSGYGQGYFDYWGQGTLVTVSS chain 2: DIQMTQSPSTLSASVGDRVTITCRASQNISSWLAWYQQKPGKAPKLLIYKASSLESGVPSRFSGSGSGTEFTLTIISLQPDDFATYYCQHYKSYPFTFGPGTKVDIK | > 10 | > 10 | – | – | – | – | – | – | – | – | – |
| BD56-272 (protein) chain 1: EVQLVQSGAEVRKPGESLKISCKDSGYSFSNYWIGWVRQMPGKGLEWMGIIYPGDSDTRYSPSFRGQVTISADKSISTAYLQWSSLKASDTAMYFCATSGVVVAQFGFDYWGQGTLVTVSS chain 2: NFMLTQPHSVSESPGKTVTISCTGSSGSIASNYVQWYQQRPGSAPTTVIYEDNQRPSGVPDRFSGSIDSSSNSASLTISGLKTEDEADYYCQSFDSSYVVFGGGTRLTVL | > 10 | > 10 | 0.0132 | 0.187 | 0.003 | 3.74 | 0.162 | > 10 | > 10 | > 10 | > 10 |
| BD56-832 (protein) chain 1: EVQLVESGGGLVQPGGSLRLSCAASGFTVSSNYMSWVRQAPGKGLEWVSLIYAGGTTYYADSVKGRFTISRGNSKNTLYLQMNSLRAEDTAVYYCAREGSPTGDAGLAFDIWGQGTMVTVSS chain 2: DIQMTQSPSSLSASVGDRVTITCQASQDINNYLNWYQQKPGKAPQLLIYDASNLETGVPSRFSGSGSGTDFTFTISSLQPEDIATYYCQQYDNLRTFGGGTKVEIK | > 10 | 5.16 | 0.00254 | 0.00253 | 3.74 | 4.5 | 0.0118 | 6.44 | 3.97 | 4.79 | > 10 |
| BD56-833 (protein) chain 1: QVQLVESGGGVVQPGRSLRLSCAASGFTFSYYGMHWVRQAPGKGLEWVAVISNHGSSEYYADSVKGRFTISRDNSKNTLYLQMNSLRAEDTAVYYCARDGEDIVVVPAAPPDYYYYYGMDVWGQGTTVTVSS chain 2: SSELTQDPAVSVALGQTVRITCQGDSLRSYYASWYQQKPGQAPVLVIYGKNNRPSGIPDRFSGSSSGNTASLTITGAQAEDEADYYCNSRDSSGNPHVVFGGGTKLTVL | > 10 | > 10 | 0.00212 | 0.00229 | 0.448 | 0.955 | > 10 | > 10 | > 10 | > 10 | > 10 |
| BD56-860 (protein) chain 1: QVQLQESGPGLVKPSETLSLTCTVSGDSISGYYWSWIRQPPGKGLEWIGYIYYSGNTNYNPSLKSRVTISVDTSDNRLSLKLSSVTAADTAVYYCARGDNYGDYWPPDSWGQGTLVSVSS chain 2: DIVMTQSPDSLAVSLGERATINCKSSQSVLYSSNNQNYLAWYQQKPGQSPKLLISWASTRESGVPDRFSGSGSGTDFTLTISSLQAEDVAVYYCQQYYSPPLTFGGGTKVEIK | > 10 | > 10 | 0.00054 | > 10 | > 10 | > 10 | > 10 | > 10 | > 10 | > 10 | > 10 |
| BD56-889 (protein) chain 1: QVQLQESGPGLVKPSETLSLTCTVSSDSISSYYWSWIRQPPGKGLEWIGYIYNSGSINYNPSLKSRVTISEDTSKNQFSLKLSSVTAADTAVYYCVRGGSYGDYFSYWGQGTLVTVSS chain 2: DIVMTQSPDSLAVSLGERATINCKSSQSVLYSSNNENYLAWYQQKPGQPPQLLIYWASTRESGVPDRFSGSGSGTDFTLTISSLQAEDVAVYYCQQYYSPPLTFGGGTKVEIK | > 10 | > 10 | 0.00239 | 0.255 | 0.352 | 0.65 | 0.369 | > 10 | > 10 | > 10 | > 10 |
| BD56-883 (protein) chain 1: QVQLVQSGAEVKKPGSSVKVSCKASGGTFSSYGISWVRQAPRQGLEWMGGIIPIFGTPNHAQKFQGRVTITADESTSTAYMELSSLRSEDTAVYYCARVEQLPPHWHFDLWGRGTLVTVSS chain 2: QSVLTQPPSVSEAPRQRVTISCSGSSSNIGNNAVNWYQQLPGKAPKLLIYDDDLLSSGVSDRFSGSKSGTSASLAISGLQSEDEADYYCAAWDDSLNGVVFGGGTTLTVL | > 10 | > 10 | 0.000582 | 0.000547 | 0.00273 | 0.0318 | 1.16 | > 10 | 0.25 | > 10 | > 10 |
| BD56-269 (protein) chain 1: QVQLVQSGAEVKKPGSSVKVSCKASGGTFSSYAISWVRQAPGQGLEWMGGIIPIFGTSSYAQKFQGRVTITADEFTSTAYMGLSSLRSEDTAVYYCARGPVGPTVVTTFEYWGQGTLVIVSS chain 2: DIQMTQSPSSLSASVGDRVTITCQASQDISNYLNWYQQKPGKAPELLIYDASNLETGVPSRFSGSGSGTDFTFTISSLQPEDLATYYCQQYDNLPLTFGGGTKVEIK | > 10 | > 10 | 0.00224 | 0.0163 | 0.0895 | 0.46 | > 10 | > 10 | > 10 | > 10 | > 10 |
| BD56-843 (protein) chain 1: EVQLVQSGAEVKKPGESLKISCKGSGYSFTNYWIGWVRQMPGKGLEWMGIISPGDSDTRYSPSFQGQVTISADKSISTAHLQWSSLKASDTAMYYCARVGVGTLEPYFDYWGQGTLVTVSS chain 2: DIQMTQSPSSLSASVGDRVTITCRASQTISSFLNWYQQKPGKAPKLLIYAASSLQSGVPSRFSGSGSGTDFTLTITSLQPEDFATYYCQQTYSIWTFGLGTKVEIK | 1.99 | > 10 | 0.00507 | 0.0566 | 0.0457 | 0.0904 | 0.0793 | 0.127 | 0.0868 | 0.092 | > 10 |
| BD56-888 (protein) chain 1: QVTLRESGPALVKPTQTLTLTCTFSGFSLSTSGMCVSWIRQPPGKALEWLALIDWDDDKYYSTSLKTRLTISKDTSKNQVVLTMTNMDPVDTATYYCARVSEEGSSSSYYFDYWGQGTLVTVSS chain 2: SYELTQPPSVSVSPGQTARITCSGDALPMQFAYWYQQKPGQAPVVVIYKDSERPSGIPERFSGSSSGTTVTLTISGVQAEDEADYYCQSADSSGSYPVVFGGGTKLTVL | > 10 | > 10 | 0.0225 | 2.92 | 0.0706 | 0.117 | 3.92 | 0.136 | 0.125 | 0.131 | > 10 |
| BD56-844 (protein) chain 1: QITLKESGPTLVKPTQTLTLTCSFSGFSLSTSGVGVGWIRQPPGKALEWLALIYWDDDKRYSPSLKSRLTITKDTSKNQVVLTMTNMDPVDTATYYCAHSPDGSSEYFQHWGQGTLVTVSS chain 2: SYELTQPPSVSVSPGQTARITCSGDALPKQYAYWYQQKPGQAPVVVIYKDSERPSGIPERFSGSSSGTTVTLTISGVQAEDEADYYCQSADSSGTPVVFGGGTKLTVL | > 10 | > 10 | 0.00626 | 0.0475 | 0.0585 | 0.483 | 0.0579 | 0.421 | 0.599 | 0.306 | > 10 |
| BD56-847 (protein) chain 1: EVQLVESGGGLVKPGGSLRLSCAASGFTFSRYYMNWVRQAPGKGLEWVSSITSSSSYIYYADSVKGRFTISRDNAENSLYLQMNSLRAEDTAVYYCASTPGDSSSWYSDYWGQGTLVTVSS chain 2: SYELTQPPSVSVSPGQTARITCSGDALPNQYAYWYQQKPGQAPVMVIYKDSERPSGIPERFSGSSSGTTVTLTISGVQAEDEADYYCQSADNSGTPWVFGGGTKLTVL | 0.00197 | > 10 | 0.00103 | 0.000498 | 0.00244 | 0.00302 | 0.00122 | 0.00565 | 0.00631 | 0.0052 | > 10 |
